# Structures were worked out from names or drawings and are uncertain.
# Sequences of proteins named here, by UniProt entry; tags and fusion partners are left off. Residues count along the entry.
# UniProt A0A5K4F0X5, 1-2268: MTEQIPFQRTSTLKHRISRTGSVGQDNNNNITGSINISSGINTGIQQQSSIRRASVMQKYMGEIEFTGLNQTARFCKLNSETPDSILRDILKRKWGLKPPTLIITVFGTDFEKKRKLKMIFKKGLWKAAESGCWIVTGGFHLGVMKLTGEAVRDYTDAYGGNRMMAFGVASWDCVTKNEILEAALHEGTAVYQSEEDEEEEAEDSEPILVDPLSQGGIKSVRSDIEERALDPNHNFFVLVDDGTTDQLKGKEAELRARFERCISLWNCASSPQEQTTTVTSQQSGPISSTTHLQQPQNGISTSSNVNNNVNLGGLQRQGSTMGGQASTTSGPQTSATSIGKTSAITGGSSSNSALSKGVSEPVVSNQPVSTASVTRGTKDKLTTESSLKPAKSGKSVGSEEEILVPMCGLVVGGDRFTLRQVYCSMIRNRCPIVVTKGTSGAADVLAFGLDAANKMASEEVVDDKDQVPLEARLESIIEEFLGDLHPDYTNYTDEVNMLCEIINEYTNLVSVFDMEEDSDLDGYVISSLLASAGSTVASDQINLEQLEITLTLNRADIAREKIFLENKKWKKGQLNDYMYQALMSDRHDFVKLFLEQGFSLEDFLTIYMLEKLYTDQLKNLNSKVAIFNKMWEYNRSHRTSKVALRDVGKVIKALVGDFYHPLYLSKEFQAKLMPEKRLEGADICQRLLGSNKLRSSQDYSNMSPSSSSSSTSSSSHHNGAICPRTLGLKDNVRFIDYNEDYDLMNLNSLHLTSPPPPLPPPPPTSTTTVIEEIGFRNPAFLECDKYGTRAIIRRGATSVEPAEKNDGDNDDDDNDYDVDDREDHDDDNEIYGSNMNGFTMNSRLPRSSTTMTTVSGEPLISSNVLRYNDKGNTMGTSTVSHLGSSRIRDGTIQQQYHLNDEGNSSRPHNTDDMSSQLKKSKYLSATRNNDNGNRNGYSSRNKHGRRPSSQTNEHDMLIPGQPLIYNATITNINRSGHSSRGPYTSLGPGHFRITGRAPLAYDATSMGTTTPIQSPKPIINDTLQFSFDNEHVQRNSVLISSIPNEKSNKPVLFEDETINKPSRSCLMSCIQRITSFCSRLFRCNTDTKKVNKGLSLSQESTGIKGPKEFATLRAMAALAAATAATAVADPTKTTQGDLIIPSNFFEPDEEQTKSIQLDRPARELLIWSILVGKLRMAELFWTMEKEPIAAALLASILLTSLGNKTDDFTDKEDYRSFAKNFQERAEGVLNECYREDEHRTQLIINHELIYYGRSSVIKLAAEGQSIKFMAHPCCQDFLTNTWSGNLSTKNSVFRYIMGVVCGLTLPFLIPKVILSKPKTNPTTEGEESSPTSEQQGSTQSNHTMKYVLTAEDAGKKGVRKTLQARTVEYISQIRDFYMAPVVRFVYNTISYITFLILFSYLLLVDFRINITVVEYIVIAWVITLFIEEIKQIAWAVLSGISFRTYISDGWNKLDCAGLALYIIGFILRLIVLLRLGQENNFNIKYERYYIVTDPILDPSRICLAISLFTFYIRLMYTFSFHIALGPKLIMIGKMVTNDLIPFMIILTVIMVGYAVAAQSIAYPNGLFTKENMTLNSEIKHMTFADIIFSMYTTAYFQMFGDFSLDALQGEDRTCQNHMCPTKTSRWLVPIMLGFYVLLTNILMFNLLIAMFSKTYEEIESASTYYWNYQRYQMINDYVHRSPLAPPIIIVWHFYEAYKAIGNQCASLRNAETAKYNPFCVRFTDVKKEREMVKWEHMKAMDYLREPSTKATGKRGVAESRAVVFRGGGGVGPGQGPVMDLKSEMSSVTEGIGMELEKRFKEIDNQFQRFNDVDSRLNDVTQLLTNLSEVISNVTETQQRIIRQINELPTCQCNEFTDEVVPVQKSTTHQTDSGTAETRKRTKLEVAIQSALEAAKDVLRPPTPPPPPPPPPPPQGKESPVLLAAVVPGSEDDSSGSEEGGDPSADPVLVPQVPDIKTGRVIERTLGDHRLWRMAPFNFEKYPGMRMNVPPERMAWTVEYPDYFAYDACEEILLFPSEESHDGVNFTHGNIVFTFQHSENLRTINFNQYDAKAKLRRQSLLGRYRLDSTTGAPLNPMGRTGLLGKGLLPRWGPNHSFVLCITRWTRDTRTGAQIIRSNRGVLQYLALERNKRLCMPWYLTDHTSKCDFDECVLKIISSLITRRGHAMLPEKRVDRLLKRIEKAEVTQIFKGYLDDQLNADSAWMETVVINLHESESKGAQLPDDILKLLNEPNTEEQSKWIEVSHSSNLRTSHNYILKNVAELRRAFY
# How the values were obtained:
# [1] = tested on: untransfected HEK293 cells; assay: Counterscreen, agonist mode, Ca2+ signal in untransfected HEK cells; format: cell-based; settings: S3 Table, counterscreen titration; for EC50: read-out: HEK AG Final EC50, unit inferred
# Procedure: (§1) HEK cells were transfected with cDNA (400μg/ml DNA) encoding Sm.TRPMPZQ using a Maxcyte STX electroporation system and incubated overnight at 37°C. This system is uniquely capabable of large scale transfections providing one batch of cells ready for large scale HTS [30]. Briefly, the HEK cells were resuspended at 10^8/ml in Maxcyte electroporation buffer. Plasmid DNA was added to the cells in buffer to achieve a concentration of 400 μg/ml from a stock of 5mg/ml (in TE buffer). This mixture was loaded into the appropriate cassette, inserted into the machine, and cells electroporated. Cells were then frozen to provide a single supply of transfected cells for all subsequent assays. On the day of the assays, cells were thawed in a 37°C waterbath, and resuspended in DMEM + 10% FBS and counted. The cells were pelleted by centrifugation at 170xg for 5 minutes. The media was aspirated, and the remaining pellet was resuspended in 1x HBSS with 20 mM HEPES and 1% DMSO to achieve 1.33x10^6cells/ml. This cell suspension was then dispensed at 3 μl/well to the 1536 well plates (Greiner Bio One part 789072) at a density of 4,000 cells/well. Measurements of fluorescence intensity (λex = 470 nm, λem = 535 nm) were made using a FLIPR (Molecular Devices FLIPR Tetra). A read of basal fluorescence values was made (5s) prior to addition of compounds or controls (30 nl). In both ‘agonist’ and ‘antagonist mode’, the total assay volume was 6μl (1% DMSO). […] Ligand performance was categorized using an algorithm based on the activity of the entire dataset to define a ‘hit-cutoff’ parameter for both agonist-mode and antagonist-mode screening. Any compound with greater percent activation than this cutoff was assigned as ‘active’ prior to titration and counter-screening. Titration assays were executed using the same reagents, protocols and detection systems, done as 10-point concentration-response curves, performed in triplicate. Counter-screening was performed using untransfected HEK293 cells for comparison with results testing the same compounds effect on cells expressing Sm.TRPMPZQ, with ATP used as the positive control. For each compound, activity was plotted against compound concentration and data were fitted with a sigmoidal function. In order to be considered a hit at this stage a compound must achieve a EC50<5 μM for agonists and IC50 <5 μM for antagonists. All compounds selected for titration were subjected to LC-MS analysis to confirm mass and sample purity. ChemAxon (https://www.chemaxon.com) academic licensing was provided for the use of Instant JChem (ver. 15.10.12.0) to perform compound mining of the libraries utilized in this effort.
# Sm.TRPMPZQ [2] = molecular target: T1, Sm.TRPMPZQ (Schistosoma mansoni, UniProt A0A5K4F0X5); settings: S3 Table, titration
# [3] = tested on: untransfected HEK293 cells; assay: Counterscreen, antagonist mode, Ca2+ signal in untransfected HEK cells; format: cell-based; settings: S3 Table, counterscreen titration
# Procedure: as §1, with “Counter-screening was performed using untransfected HEK293 cells for comparison with results testing the same compounds effect on cells expressing Sm.TRPMPZQ, with ATP used as the positive control. For each compound, activity was plotted against compound concentration and data were fitted with a sigmoidal function. In order to be considered a hit at this stage a compound must achieve a EC50<5 μM for agonists and IC50 <5 μM for antagonists. All compounds selected for titration were subjected to LC-MS analysis to confirm mass and sample purity. ChemAxon (https://www.chemaxon.com) academic licensing was provided for the use of Instant JChem (ver. 15.10.12.0) to perform compound mining of the libraries utilized in this effort.” left out
# Sm.TRPMPZQ [4] = molecular target: T1, Sm.TRPMPZQ; settings: S3 Table, titration; remark: listed apart in the source
SMILES,HEK AG Averaged Max % Response [1] [%],EC50 [1] [µM],Sm.TRPMPZQ AG Averaged Max % Response (Sm.TRPMPZQ [2]) [%],HEK ANT Averaged Max % Response [3] [%],Sm.TRPMPZQ ANT Averaged Max % Response (Sm.TRPMPZQ [4]) [%]
FC(F)(F)c1cc(N/N=C2/CCSc3sccc32)cc(C(F)(F)F)c1,12.2169,> 12.4,1.692,27.5203,79.9613
Cc1ccc(S(=O)(=O)Nc2ccc(-n3ccc(C(F)(F)F)n3)cc2)cc1,46.6577,> 12.4,22.2528,74.9133,65.0776
O=c1[nH]c2ccccc2c(=O)n1C(c1ccc(Cl)cc1)P(=O)(Oc1ccccc1)Oc1ccccc1 (stereo not drawn),22.9012,> 12.4,9.607,29.6793,93.9968

# Source: paper PMC8565742 (PLoS Neglected Tropical Diseases, 2021)
